A mixed list of measured activities; the numbers were collected in NIAID ChemDB.

All rows: tests in culture; species: Mycobacterium tuberculosis

MIC bound comes from a single tested concentration. MIC50, MIC90 and the like: level of inhibition, or share of isolates inhibited. Inhibition is in % at the dose shown (toxicity tests: loss of growth or viability). ECn is the concentration giving n% inhibition of infection, replication or growth. Neighbouring rows are from separate reports. Blank or dashed fields: not listed here.

compound,endpoint,dose,cell line,method,mutations,strain or isolate,conditions,value
O=C(Nn1c(-c2ccccc2)ccc1-c1ccccc1)c1ccncc1,inhibition,100 µg/mL,-,resazurin,-,H37Rv (ATCC 27294),-,100%
CC(C)(C)OC(=O)N[C@@H](CO)C(=O)N/N=C/c1ccccc1[N+](=O)[O-],MIC,-,-,resazurin,-,H37Rv,-,>100 µg/mL
O=c1c(-c2ccccc2)c(O)cc2n1CCC2,MIC,-,-,-,-,H37Ra,-,16 µg/mL
Oc1cc(Cl)ccc1Oc1ccc(Cl)cc1Cl,MIC,-,-,-,-,M305,-,20 µM
CCC(C)C(NC=O)C(=O)N[C@@H]1C(=O)N[C@H](C(C)C)C(=O)N[C@@H](C(C)C)C(=O)N2CCC[C@@H]2C(=O)N[C@H](CC(C)C)C(=O)N2CCC[C@@H]2C(=O)OC1C,MIC,-,-,agar,-,MDR,-,16 µg/mL
CCn1cc(C(=O)O)c(=O)c2cc(F)c(N3CCN(CC(=O)OC[C@H]4O[C@@H](n5cc(C)c(=O)[nH]c5=O)C[C@@H]4N=[N+]=[N-])CC3)cc21,EC50,-,-,BACTEC,-,H37Rv (ATCC 27294),-,99 µg/mL
N#C[B][n+]1ccc(C(=O)NNCC(F)(F)F)cc1,EC90,-,Macrophages,colony count,-,Erdman,inside macrophages,1.14 µg/mL
Cc1ccc(-c2ccccc2)n1NC(=O)c1ccccc1,inhibition,100 µg/mL,-,resazurin,-,H37Rv (ATCC 27294),-,100%
CC1(C)Cc2cc(O)c(-c3ccccc3)c(=O)n2C1,MIC,-,-,-,-,H37Ra,-,16 µg/mL
OC(CC1CCCCN1)c1cc(C(F)(F)F)nc2c(C(F)(F)F)cccc12,MIC bound,-,-,resazurin,-,H37Rv,-,>6.25 µg/mL
O=C1c2ccccc2C(=O)c2cc(C[P+](c3ccccc3)(c3ccccc3)c3ccccc3)ccc21,MIC,-,-,resazurin,Clinically sensitive strain,FJ05349,-,1 µg/mL
O=C(Nc1cccc([N+](=O)[O-])c1)c1cc2ccccc2cc1O,MIC99,-,-,-,-,H37Rv,-,750 µg/mL
O=C(O)c1c(O)c(-c2ccccc2)c(=O)n2c1CCC2,MIC,-,-,-,-,H37Ra,-,>256 µg/mL
NC(=O)/C(N=Nc1ccccc1C(=O)O)=N/Nc1ccccc1C(=O)O,inhibition,12.5 µg/mL,-,BACTEC,-,H37Rv,-,49%
COc1cc2ccnc3c2c(c1OC(=O)c1ccc(CCl)cc1)N(C)C=C3,MIC,-,-,-,-,H37Rv,-,>128 µg/mL
CC(NNC(=O)c1ccncc1)c1ccc(F)cc1,MBC,-,-,-,-,Isoniazid-resistant,-,>50 µg/mL
Cc1ccc(-c2ccccc2)n1NC(=O)c1ccncc1,MBC,-,-,turbidity,-,H37Rv,-,7.8 µg/mL
C/C(=N\NC(=O)c1ccncc1)c1ccccc1F,MIC,-,-,-,-,H37Rv (ethionamide-resistant),-,>31.25 µg/mL
Cc1cc(S(=O)(=O)N2CCNC2=O)c(S)cc1Cl,inhibition,6.25 µg/mL,-,resazurin,-,H37Rv,-,-20%
COc1cc(C2C=C(c3ccc(NC(=O)C(c4ccc(Cl)cc4)C(C)C)cc3)OC(N)=C2C#N)cc(OC)c1OC,inhibition,6.25 µg/mL,-,BACTEC,-,H37Rv,-,0%
COc1cc2ccnc3c2c(c1OC(=O)N1CCCC1)N(C)C=C3,MIC,-,-,-,-,H37Rv,-,>128 µg/mL
CCOC(=O)c1c(C)c(C(=O)CC)c(C)n1C(=O)c1ccccc1,MIC bound,-,-,resazurin,-,H37Rv,-,>6.25 µg/mL
CCN(CC)c1nc(Cl)nc(Nc2ccc3cc(-c4ccccc4)c(=O)oc3c2)n1,MIC,-,-,-,-,H37Rv,-,125 µg/mL
O=C(N/N=C/c1cccc(F)c1)c1ccncc1,MIC,-,-,-,-,Ciprofloxacin-resistant,-,0.2 µg/mL
CO/N=C(\C(=O)N[C@@H]1C(=O)N2C(C(=O)O)=C(COC(C)=O)CS[C@H]12)c1csc(N)n1,inhibition,100 µg/mL,-,-,-,-,-,42%
CC(C)C(C(=O)Nc1ccc(C2=CC(c3ccc(N(C)C)cc3)C(C#N)=C(N)O2)cc1)c1ccc(Cl)cc1,inhibition,6.25 µg/mL,-,BACTEC,-,H37Rv,-,0%
CCCCOP(=S)(OCCCC)SC1(SC)SSC=C1CC(C)(C)C,MIC,-,-,BACTEC,-,H37Rv,-,≥12.5 µg/mL
Cc1cc(O)c(C(C)C)cc1N=Cc1cc([N+](=O)[O-])ccc1O,MIC99,-,-,-,-,H37Rv,-,6 µg/mL
NNC(=O)c1ccncc1,EC50,-,-,turbidity,-,H37Rv (ATCC 27294),-,0.12 µg/mL
CCCCc1c(O)cc2n(c1=O)CCC2,MIC,-,-,-,-,H37Ra,-,256 µg/mL
COc1ccc(C2C=C(c3ccc(NC(=O)C(c4ccc(Cl)cc4)C(C)C)cc3)OC(N)=C2C#N)cc1,inhibition,6.25 µg/mL,-,BACTEC,-,H37Rv,-,0%
CCCCCCCCCCCCO/N=C/c1c2c(O)c3c(O)c(C)c4c(c3c1O)C(=O)[C@@](C)(O/C=C/[C@H](OC)[C@@H](C)[C@@H](OC(C)=O)[C@H](C)[C@H](O)[C@H](C)[C@@H](O)[C@@H](C)/C=C/C=C(/C)C(=O)N2)O4,MIC,-,-,-,-,H37Rv,-,>20 µg/mL
O=C(NNC(=O)c1ccc(Cl)cc1Cl)c1ccc2ccccc2c1,MIC,-,-,BACTEC,-,H37Rv,-,≥12.5 µg/mL
CO[C@H]1/C=C/O[C@@]2(C)Oc3c(C)c(O)c4c(O)c(c(/C=N/OCCN5CCN(C)CC5)c(O)c4c3C2=O)NC(=O)/C(C)=C\C=C\[C@H](C)[C@H](O)[C@@H](C)[C@@H](O)[C@@H](C)[C@H](OC(C)=O)[C@@H]1C,MIC,-,-,-,-,H37Rv,-,5 µg/mL
COc1cc2ccnc3c2c(c1OC(=O)c1ccc(C#N)cc1)N(C)C=C3,MIC,-,-,-,-,H37Rv,-,>128 µg/mL
C=C(CC)CO/N=C/c1c2c(O)c3c(O)c(C)c4c(c3c1O)C(=O)[C@@](C)(O/C=C/[C@H](OC)[C@@H](C)[C@@H](OC(C)=O)[C@H](C)[C@H](O)[C@H](C)[C@@H](O)[C@@H](C)/C=C/C=C(/C)C(=O)N2)O4,MIC,-,-,-,-,H37Rv,-,0.2 µg/mL
Cc1cn([C@H]2C[C@H](N=[N+]=[N-])[C@@H](COC(=O)CNC(=O)c3cnccn3)O2)c(=O)[nH]c1=O,EC50,-,-,BACTEC,-,H37Rv (ATCC 27294),-,90 µg/mL
COc1ccc(C2N=C(N)Nc3c2c(C)nn3-c2ccc3c(c2)Nc2ccccc2S3)cc1,inhibition,42 µg/mL,-,resazurin,-,H37Rv,-,78%
C/C(=N\NC(=O)c1ccncc1)c1ccccc1,MIC,-,-,-,-,Rifampicin-resistant,-,0.2 µg/mL
O=c1cc(O)cc2n1CCC2,MIC,-,-,-,-,H37Ra,-,>256 µg/mL
NC(=O)c1nc([C@@H]2O[C@H](CO)[C@@H](O)[C@H]2O)cs1,inhibition,12.5 µg/mL,-,BACTEC,-,H37Rv,-,-2%
CO[C@H]1/C=C/O[C@@]2(C)Oc3c(C)c(O)c4c(O)c(c(/C=N/OCCOc5ccccc5)c(O)c4c3C2=O)NC(=O)/C(C)=C\C=C\[C@H](C)[C@H](O)[C@@H](C)[C@@H](O)[C@@H](C)[C@H](OC(C)=O)[C@@H]1C,MIC,-,-,-,-,H37Rv,-,0.2 µg/mL
CC(NNC(=O)c1ccncc1)c1cccc(C(F)(F)F)c1,MIC,-,-,-,-,Ethionamide-resistant,-,>50 µg/mL
O=c1oc2cc3n(c(=O)c2c(O)c1Cc1ccccc1)CCC3,MIC,-,-,-,-,H37Ra,-,≥256 µg/mL
COc1cc2ccnc3c2c(c1OC(=O)c1cccc(C)c1)N(C)C=C3,MIC,-,-,-,-,H37Rv,-,>128 µg/mL
COc1cc(-c2cc(=O)c3cc(C)c(C)c(C(=O)O)c3o2)cc(OC)c1OC,inhibition,12.5 µg/mL,-,BACTEC,-,H37Rv,-,29%
COc1ccc(/C=N/NC(=O)[C@H](CO)NC(=O)OCc2ccccc2)c(O)c1,MIC,-,-,resazurin,-,H37Rv,-,>100 µg/mL
CC(=O)N1N=C(c2ccc(NC(=O)C(c3ccc(Cl)cc3)C(C)C)cc2)CC1c1c(Cl)cccc1Cl,inhibition,6.25 µg/mL,-,BACTEC,-,H37Rv,-,0%
O=C1NC(C(=O)N/N=C/c2cccc([N+](=O)[O-])c2)CO1,MIC,-,-,resazurin,-,H37Rv,-,100 µg/mL
NCc1ccccc1CC(=O)N[C@@H]1C(=O)N2C(C(=O)O)=C(CSc3nnnn3CC(=O)O)CS[C@H]12,inhibition,12.5 µg/mL,-,broth dilution,-,65 isolates,-,62%
CO[C@H]1/C=C/O[C@@]2(C)Oc3c(C)c(O)c4c(O)c(c(/C=N/OC(c5ccccc5)c5ccccc5)c(O)c4c3C2=O)NC(=O)/C(C)=C\C=C\[C@H](C)[C@H](O)[C@@H](C)[C@@H](O)[C@@H](C)[C@H](OC(C)=O)[C@@H]1C,MIC,-,-,-,-,H37Rv,-,1 µg/mL
CC[C@@H](C)[C@H](OC(=O)/C=C/c1ccccc1)[C@H](C)[C@H](O)C/C=C/C=C/C(N)=O,MIC,-,-,-,-,-,-,25 µg/mL
Nc1nc(=O)[nH]s1,MIC,-,-,BACTEC,-,H37Rv,-,12.5 µg/mL
CC(=O)OCC1=C(C(=O)O)N2C(=O)[C@@H](NC(=O)CSc3ccncc3)[C@H]2SC1,inhibition,100 µg/mL,-,-,-,-,-,73%
CCN(CC)C(=S)Sc1nc2ccccc2s1,MIC bound,-,-,BACTEC,-,H37Rv,-,≤128 µg/mL
CC(=O)N1N=C(c2ccc(NC(=O)C(c3ccc(Cl)cc3)C(C)C)cc2)CC1c1ccccc1,inhibition,6.25 µg/mL,-,BACTEC,-,H37Rv,-,95%
CCCCCCCCCCCCCCc1sc(N)nc1-c1ccccc1,MIC bound,-,-,BACTEC,-,H37Rv,-,>6.25 µg/mL
O=c1oc2cc3n(c(=O)c2c(O)c1-c1ccccc1)CCC3,MIC,-,-,-,-,H37Ra,-,≥256 µg/mL
NC(=O)c1ccc(=O)n([C@@H]2O[C@H](CO)[C@@H](O)[C@H]2O)c1,inhibition,6.25 µg/mL,-,resazurin,-,H37Rv,-,5%
O=C(N[C@@H](CO)C(=O)N/N=C/c1cccc([N+](=O)[O-])c1)OCc1ccccc1,MIC,-,-,resazurin,-,H37Rv,-,25 µg/mL
CC1=NN(c2ccccc2)C(=O)C1N=Nc1ccccc1S(=O)(=O)[O-].[Na+],MIC,-,-,BACTEC,-,H37Rv,-,≥12.8 µg/mL
CC(C)(C)OC(=O)N[C@@H](CO)C(=O)N/N=C/c1ccc([N+](=O)[O-])cc1,MIC,-,-,resazurin,-,H37Rv,-,>100 µg/mL
CO[C@@]1(NC(=O)C(C(=O)O)c2ccc(O)cc2)C(=O)N2C(C(=O)O)=C(CSc3nnnn3C)CO[C@@H]21,inhibition,100 µg/mL,-,-,-,-,-,0%
O=c1c2ccccc2nnn1N1CCOCC1,inhibition,12.5 µg/mL,-,BACTEC,-,H37Rv,-,0%
CC(C)C(C(=O)Nc1ccc(C2=CC(c3ccco3)C(C#N)=C(N)O2)cc1)c1ccc(Cl)cc1,inhibition,6.25 µg/mL,-,BACTEC,-,H37Rv,-,14%
O=C(N[C@@H](CO)C(=O)N/N=C/c1cccc(O)c1O)OCc1ccccc1,MIC,-,-,resazurin,-,H37Rv,-,50 µg/mL
C/C(=N\NC(=O)c1ccncc1)c1ccc(F)cc1,EC50,-,Macrophages,colony count,-,Erdman,inside macrophages,<0.038 µg/mL
COc1ccc([C@H]2CC(=O)c3c(OC(C)=O)cc(OC(C)=O)cc3O2)cc1OC(C)=O,MIC bound,-,-,BACTEC,-,H37Rv,-,>128 µg/mL
COc1cc2ccnc3c2c(c1OC(=O)c1cccc(F)c1F)N(C)C=C3,MIC,-,-,-,-,H37Rv,-,>128 µg/mL
Cc1ccc(CSC(=S)NNc2ccccc2)cc1C,inhibition,128 µg/mL,-,BACTEC,-,H37Rv,-,94%
CC(=O)N1N=C(c2ccc(NC(=O)C(c3ccc(Cl)cc3)C(C)C)cc2)CC1/C=C/c1ccccc1,inhibition,6.25 µg/mL,-,BACTEC,-,H37Rv,-,25%
O=C(COc1ccc(Br)cc1Br)N1N=C(c2ccc([N+](=O)[O-])o2)CC1(O)c1ccccc1,MIC bound,-,-,resazurin,-,H37Rv,-,>6.25 µg/mL
O=C(NNCc1ccccc1F)c1ccncc1,MIC,-,-,-,-,Ethambutol-resistant,-,0.39 µg/mL
CCOC(=O)C(C)c1c(C(=O)c2ccc(C)nc2)c2ccccc2n1C,inhibition,6.25 µg/mL,-,BACTEC,-,H37Rv,-,19%
O=C(Nn1c(-c2ccccc2)ccc1-c1ccccc1)c1ccccc1,inhibition,100 µg/mL,-,resazurin,-,H37Rv (ATCC 27294),-,100%
Cc1c2c(C(N)=O)nccc2c(C)c2c1c1ccccc1n2Cc1ccccc1,inhibition,6.25 µg/mL,-,resazurin,-,H37Rv,-,-59%
CC(=O)N1N=C(c2ccc(NC(=O)C(c3ccc(Cl)cc3)C(C)C)cc2)CC1c1ccc(O)cc1,inhibition,6.25 µg/mL,-,BACTEC,-,H37Rv,-,37%
Cc1oc(C)c2c1C(=O)N(C)C2=O,inhibition,12.5 µg/mL,-,BACTEC,-,H37Rv,-,34%
CC(NNC(=O)c1ccncc1)c1ccc(Cl)c(Cl)c1,MIC,-,-,-,-,H37Rv (isoniazid-resistant),-,>31.25 µg/mL

A second listing of 4 rows from above:

O=c1oc2cc3n(c(=O)c2c(O)c1Cc1ccccc1)CCC3 ; endpoint: MIC ; strain or isolate: H37Ra ; value: ≥256 µg/mL
COc1cc(C2C=C(c3ccc(NC(=O)C(c4ccc(Cl)cc4)C(C)C)cc3)OC(N)=C2C#N)cc(OC)c1OC ; endpoint: inhibition ; dose: 6.25 µg/mL ; method: BACTEC ; strain or isolate: H37Rv ; value: 0%
COc1ccc(C2N=C(N)Nc3c2c(C)nn3-c2ccc3c(c2)Nc2ccccc2S3)cc1 ; endpoint: inhibition ; dose: 42 µg/mL ; method: resazurin ; strain or isolate: H37Rv ; value: 78%
CO[C@H]1/C=C/O[C@@]2(C)Oc3c(C)c(O)c4c(O)c(c(/C=N/OCCN5CCN(C)CC5)c(O)c4c3C2=O)NC(=O)/C(C)=C\C=C\[C@H](C)[C@H](O)[C@@H](C)[C@@H](O)[C@@H](C)[C@H](OC(C)=O)[C@@H]1C ; endpoint: MIC ; strain or isolate: H37Rv ; value: 5 µg/mL